A mixed list of measured activities; the numbers were collected in NIAID ChemDB.

All rows: tests in culture; species: Hepatitis B virus; cell line: HepG2.2.15; endpoint: EC50

An empty or dashed field is not shown.

compound | read by | result
O=C(CNC(=O)c1ccc(F)cc1)Nc1ccc(Cl)nc1Cl | PCR | 0.88 µM
C/C=C(/C)C(=O)Oc1c(OC)c(OC)cc2c1-c1c(cc3c(c1OC)OCO3)C[C@H](C)[C@@](C)(O)C2 | PCR | 12.03 µg/mL
O=C(CNC(=O)c1cccc(F)c1)Nc1ccc(Cl)nc1Cl | PCR | >100 µM
C#CC(C)(C)NC(=O)C(=O)c1c(C)c(C(=O)Nc2ccc(F)c(C#N)c2)n(C)c1C | PCR | <0.001 µM
C[C@]1(CO)O[C@@H](n2ccc(N)nc2=O)[C@H](O)[C@@H]1O |  | >10 µM
CN1CCCn2c(c3n(c2=O)CCN(C(=O)Nc2ccc(F)c(Cl)c2)C3)C1=O | PCR | 0.5–5 µM
C[C@@H]1[C@@H](C)c2[nH]nc(-c3ncccn3)c2CN1C(=O)Nc1ccc(F)c(C#N)c1 | PCR | 0.015 µM
C#CCNC(=O)C(=O)c1cc(C(=O)Nc2ccc(F)c(C#N)c2)n(C)c1Cl | PCR | 0.1–0.999 µM
COC(=O)C1=C(CN2CCN(C(=O)OC)CC2)NC(c2ncc(F)cc2F)=NC1c1ccc(Cl)cc1Cl |  | 0.08 µM
CC1=CC2c3c(C)cc(-c4cc5ccc(O)cc5o4)cc3O[C@@]3(c4ccc(O)cc4O)Oc4cc(O)ccc4[C@H](C1)C23 | PCR | 3.99 µM
C=C[C@](C)(NC(=O)C(=O)c1c(C)c(C(=O)Nc2ccc(F)c(C#N)c2)n(C)c1C)C(F)(F)F | PCR | 0.001–0.0099 µM
OC[C@H]1O[C@@H](OCCc2ccc(O)c(O)c2)[C@H](O)[C@@H](O[C@@H]2OC[C@](O)(CO)[C@H]2O)[C@@H]1O | ELISA / antigen | 70 µM
C[C@H](Cn1cnc2c(N)ncnc21)OCP(=O)(O)O | ELISA / antigen | 23.13 µg/mL
Nc1ncc(Cl)c2c1ncn2[C@@H]1C[C@H](O)[C@@H](O)[C@H]1O |  | >10 µM
C[C@]1(CO)O[C@@H](n2cnc3c(=O)[nH]c(N)nc32)[C@H](O)[C@@H]1O |  | >10 µM
COC(=O)C1=C(CN2CCN(C(=O)Oc3ccccc3)CC2)NC(c2ncc(F)cc2F)=N[C@H]1c1ccc(F)cc1Br |  | 0.05 µM
CN(CC(=O)Nc1ccc(Cl)cc1Cl)C(=O)c1cccnc1 | PCR | 41 µM
CN1CC(c2ccn(C)n2)Cn2nc3c(c2C1=O)CN(C(=O)Nc1ccc(F)c(Cl)c1)CC3 | fluorescence | 160 µM
CCOC(=O)C1=C(C)NC(c2nccs2)=NC1c1ccc(F)cc1Cl |  | 0.03 µM
COC(=O)C1=C(CN2CCN(C(=O)OC)CC2)NC(c2ncccc2F)=NC1c1ccc(F)cc1Br |  | 0.08 µM
COC(=O)C1=C(C)NC(c2ccccn2)=NC1c1ccccc1F |  | 20 µM
CC(C)NC(=O)c1c2n(c(=O)n1-c1ccccc1)CCN(C(=O)c1ccc(Br)c(Cl)c1)C2 | PCR | >5 µM
COC(=O)C1=C(CCC(=O)NC2CCCC2)NC(c2ccccn2)=NC1c1ccccc1Cl |  | >100 µM
C[C@]1(CO)O[C@@H](n2cc(F)c(=O)[nH]c2=O)[C@H](O)[C@@H]1O |  | >10 µM
C[C@@H]1Cc2nn3c(c2CN1C(=O)Nc1ccc(F)c(C#N)c1)C(=O)N(C)C[C@H](c1ccn[nH]1)C3 | fluorescence | 37 µM
COC(=O)C1=C(C)N(C)C(c2ccccn2)=NC1c1ccccc1Cl |  | >100 µM
O=C(Nc1ccc(F)c(Cl)c1)N1CCn2c(c3n(c2=O)CCCN(Cc2ccccc2)C3=O)C1 | PCR | 0.1–0.5 µM
COC(=O)C1=C(C)NC(c2ccccn2)=NC1c1ccccc1OC |  | 20 µM
C[C@@H]1O[C@@H](O[C@@H]2C3O[C@@H](c4ccc(O)c(O)c4)COC3O[C@H](CO)[C@H]2O)[C@H](O)[C@H](O)[C@H]1O | ELISA / antigen | 420 µM
COC(=O)C1=C(C)NC(c2ccccn2)=NC1c1ccccc1Cl |  | 3 µM
C#C[C@@](CO)(NC(=O)C(=O)c1c(C)c(C(=O)Nc2ccc(F)c(C#N)c2)n(C)c1C)C1CC1 | PCR | 0.001–0.0099 µM
C[C@@H]1[C@@H](C)c2[nH]nc(-c3ncccn3)c2CN1C(=O)Nc1ccnc(Br)c1F | PCR | 0.032 µM
COc1ccc(CN2CCCn3c(c4n(c3=O)CCN(C(=O)c3ccc(Br)c(Cl)c3)C4)C2=O)cc1 | PCR | 0.1–0.5 µM
CN(C)S(=O)(=O)NCC(=O)Nc1ccc(Cl)nc1Cl | PCR | 46 µM
C[C@@H]1Cc2nn3c(c2CN1C(=O)Nc1ccc(F)c(C(F)(F)F)c1)C(=O)N(C)C[C@H](c1ccn[nH]1)C3 | fluorescence | 20 µM
C[C@H]1c2[nH]nc(-c3ncccn3)c2CN(C(=O)Nc2ccnc(Br)c2F)[C@H]1C | PCR | 0.039 µM
C[C@@H]1Cc2nn3c(c2CN1C(=O)Nc1ccc(F)c(C#N)c1)C(=O)N(C)C[C@@H](c1ccon1)C3 | fluorescence | 240 µM
C/C=C(/C)C(=O)Oc1c(OC)c(OC)cc2c1-c1c(cc(OC)c(OC)c1OC)C[C@H](C)[C@H](C)C2 | PCR | 5.13 µg/mL
O=C(NCc1ccccc1-c1nccnn1)c1c2n(c(=O)n1-c1ccc(OC3CC3)cc1)CCN(C(=O)c1ccc(Br)c(Cl)c1)C2 | PCR | 0.1–0.5 µM
COC(=O)C1=C(CN2CCC3(CN(C)CCO3)C2)NC(c2ncc(F)cc2F)=N[C@H]1c1ccc(F)cc1Cl |  | 0.05 µM
C[C@@H]1Cc2nn3c(c2CN1C(=O)Nc1ccc(F)c(C#N)c1)C(=O)N(C)C[C@H](c1ccon1)C3 | fluorescence | 27 µM
COC(=O)C1=C(C)NC(c2ccccn2)=NC1c1ccsc1 |  | 20 µM

Repeating the first 5 entries:

| compound | read by | result |
|---|---|---|
| O=C(CNC(=O)c1ccc(F)cc1)Nc1ccc(Cl)nc1Cl | PCR | 0.88 µM |
| C/C=C(/C)C(=O)Oc1c(OC)c(OC)cc2c1-c1c(cc3c(c1OC)OCO3)C[C@H](C)[C@@](C)(O)C2 | PCR | 12.03 µg/mL |
| O=C(CNC(=O)c1cccc(F)c1)Nc1ccc(Cl)nc1Cl | PCR | >100 µM |
| C#CC(C)(C)NC(=O)C(=O)c1c(C)c(C(=O)Nc2ccc(F)c(C#N)c2)n(C)c1C | PCR | <0.001 µM |
| C[C@]1(CO)O[C@@H](n2ccc(N)nc2=O)[C@H](O)[C@@H]1O |  | >10 µM |

Two numbers with a dash give a range or band. Conditions beyond the fields shown may differ between rows. ECn is the concentration giving n% inhibition of infection, replication or growth.